Measured values from several laboratories, pooled; numbers as filed in NIAID ChemDB.

All rows: tests in culture; species: Candida albicans

a–b is a range or a potency band. MIC50, MIC90 and the like: level of inhibition, or share of isolates inhibited. Lines come from different laboratories, so protocols vary.

SMILES | measure | strain | result
O=C(N/N=C/c1ccccc1)c1cc(-c2ccc(Br)cc2)nc2ccc(Cl)cc12 | MIC | ATCC 10231 | 100–200 µg/mL
CCOC(=O)c1sc2cc(-c3ccc(OC)cc3)oc(=O)c2c1N | MIC | SKF | >100 µg/mL
O=C(Nc1ccc2oc(-c3ccc(F)cc3)nc2c1)OCc1ccc(Cl)cc1 | MIC | RSKK 628 | 50 µg/mL
COc1cc2ncn([C@H](C)[C@](O)(Cn3cncn3)c3ccc(F)cc3F)c(=O)c2cc1OC | MIC | 60 strains | 1.25 µg/mL
CCC(C)CC(C)CCCCCCCCC(=O)N[C@H]1C[C@@H](O)[C@@H](O)NC(=O)[C@@H]2[C@@H](O)CCN2C(=O)[C@H]([C@H](O)CCN)NC(=O)[C@H]([C@H](O)Cc2ccc(O)cc2)NC(=O)[C@@H]2C[C@@H](O)CN2C(=O)[C@H]([C@@H](C)O)NC1=O | MFC | MY1055 | <0.06 µg/mL
O=C(ONC1=Nc2ccccc2SCC1)c1ccccc1 | MIC | CBS 562 | >100 µg/mL
CCC(C)CC(C)CCCCCCCCC(=O)N[C@H]1C[C@@H](O)[C@@H](O)NC(=O)[C@@H]2[C@@H](O)CCN2C(=O)[C@H]([C@H](O)CC#N)NC(=O)[C@H]([C@H](O)Cc2ccc(O)cc2)NC(=O)[C@@H]2C[C@@H](O)CN2C(=O)[C@H]([C@@H](C)O)NC1=O | MFC | MY1055 | 2 µg/mL
C[C@@H](n1cnc2ncccc2c1=O)[C@](O)(Cn1cncn1)c1ccc(F)cc1F | MIC | 60 strains | 10 µg/mL
O=C(NC1=Nc2ccc3ccccc3c2SC1)Oc1ccccc1 | MIC | CBS 562 | >100 µg/mL
Cc1cnc2[nH]c(-c3ccccc3)cc2c1 | MIC100 | ATCC 10231 | 15.6 µg/mL
COc1cc(O)c2c(=O)c(OC)c(-c3ccc(OC)c(OC)c3)oc2c1 | MIC | ATCC 10231 | 12.5 µg/mL
O=C(Nc1ccc2oc(-c3ccc(F)cc3)nc2c1)SCc1ccccc1 | MIC | RSKK 628 | 25 µg/mL
CCOC(=O)c1sc(SC)c(C#N)c1N | MIC | SKF | >100 µg/mL
CCc1ccc(-c2nc3cc(NC(=O)SCc4ccccc4)ccc3o2)cc1 | MIC | RSKK 628 | 25 µg/mL
Cc1nc2cc(Cl)ccc2c(=O)n1[C@H](C)[C@](O)(Cn1cncn1)c1ccc(F)cc1F | MIC | 60 strains | 0.15 µg/mL
S=C(NNC1=Nc2ccc3ccccc3c2SC1)Nc1ccccc1 | MIC | CBS 562 | 50 µg/mL
C[C@@H](n1cnc2cc(N)c(F)cc2c1=O)[C@](O)(Cn1cncn1)c1ccc(F)cc1F | MIC | 406 strains | 5 µg/mL
CCc1ccc(-c2nc3cc(NC(=O)OCc4ccccc4)ccc3o2)cc1 | MIC | RSKK 628 | 50 µg/mL
CCC(C)n1ncn(-c2ccc(N3CCN(c4ccc(OC[C@H]5CO[C@](Cn6cncn6)(c6ccc(Cl)cc6Cl)O5)cc4)CC3)cc2)c1=O | MIC | 76 strains | 10 µg/mL
CC(C)=CCCC(C)CCOC(Cn1ccnc1)c1ccc(Cl)cc1Cl | MIC | TIMM0144 | 20–40 µg/mL
CCc1ccc(-c2nc3cc(NC(=O)CCc4ccccc4)ccc3o2)cc1 | MIC | RSKK 628 | 12.5 µg/mL
COc1ccc(/C=N/NC(=O)c2cc(-c3ccc(Cl)cc3)nc3ccc(Cl)cc23)cc1 | MIC | ATCC 10231 | 50–100 µg/mL
CC1(c2ccccc2)CC(C(=O)c2cc3ccccc3o2)C1 | MIC | ATCC 10231 | 0.625 µg/mL
COc1cc(O)c2c(=O)c(OC)c(-c3ccc(O)c(OC)c3)oc2c1 | MIC | ATCC 10231 | 3.1 µg/mL
O=C(Nc1ccc2oc(-c3ccc(F)cc3)nc2c1)c1ccccc1 | MIC | RSKK 628 | 25 µg/mL
O=C(Oc1cc2cc(Br)cnc2[nH]1)c1ccccc1 | MIC100 | ATCC 10231 | 23.5 µg/mL
C[C@@H](n1cnc2cc(/C(N)=N/S(N)(=O)=O)ccc2c1=O)[C@](O)(Cn1cncn1)c1ccc(F)cc1F | MIC | 76 strains | 10 µg/mL
O=C(N/N=C/c1ccc(Br)cc1)c1cc(-c2ccccc2)nc2ccc(Cl)cc12 | MIC | ATCC 10231 | 25–50 µg/mL
C[C@@H](n1cnc2cc(F)c(F)cc2c1=O)[C@](O)(Cn1cncn1)c1ccc(F)cc1F | MIC | 76 strains | 0.15 µg/mL
CCOC(=O)c1sc2cc(-c3ccc(Br)cc3)oc(=O)c2c1N | MIC | SKF | >100 µg/mL
CN(C)c1ccc(-c2nc3cc(NC(=O)CCc4ccccc4)ccc3o2)cc1 | MIC | RSKK 628 | 25 µg/mL
O=C(N/N=C/c1ccc(Br)cc1)c1cc(-c2ccc(Br)cc2)nc2ccccc12 | MIC | ATCC 10231 | 100–200 µg/mL
CSc1ccc2c(=O)n([C@H](C)[C@](O)(Cn3cncn3)c3ccc(F)cc3F)cnc2c1 | MIC | 76 strains | ≤0.03 µg/mL
CN(C)c1ccc(-c2nc3cc(NC(=O)OCc4ccccc4)ccc3o2)cc1 | MIC | RSKK 628 | 25 µg/mL
O=C(N/N=C/c1ccccc1)c1cc(-c2ccccc2)nc2ccc(Cl)cc12 | MIC | ATCC 10231 | 50–100 µg/mL
CC1C(=O)CC2C(C)(C)CCC[C@]2(C)C1(O)CCc1ccco1 | MIC | ATCC 10231 | 12.5 µg/mL
CC(C)=CCOC(Cn1ccnc1)c1ccc(Cl)cc1Cl | MIC | TIMM0144 | 80–160 µg/mL
CCOC(=O)c1sc2cc(-c3ccc(F)cc3)oc(=O)c2c1N | MIC | SKF | >100 µg/mL
CC(C)N=C(N)c1ccc2nc(-c3ccc4c(c3)Cc3cc(-c5nc6ccc(C(N)=NC(C)C)cc6[nH]5)ccc3-4)[nH]c2c1 | MFC | ATCC 76615 | 1.56 µg/mL
C[C@H](n1cnc2cc(C(F)(F)F)ccc2c1=O)[C@](O)(Cn1cncn1)c1ccc(F)cc1F | MIC | 60 strains | ≤0.03 µg/mL
COc1ccc(-c2cc(C(=O)N/N=C/c3ccccc3[N+](=O)[O-])c3cc(Cl)ccc3n2)cc1 | MIC | ATCC 10231 | 25–50 µg/mL
CCOC(=O)c1sc2cc(-c3cccc([N+](=O)[O-])c3)oc(=O)c2c1N | MIC | SKF | >100 µg/mL
CN(C)c1ccc(-c2nc3cc(NC(=O)SCc4ccccc4)ccc3o2)cc1 | MIC | RSKK 628 | 25 µg/mL
CCOC(=O)c1sc(SC)cc1-c1ccc(F)cc1 | MIC | SKF | >100 µg/mL
COc1ccc(-c2cc3cc(C)cnc3[nH]2)cc1 | MIC100 | ATCC 10231 | 31.3 µg/mL
ONC1=Nc2ccc3ccccc3c2SCC1 | MIC | CBS 562 | >100 µg/mL
CSc1cc(-c2ccc(Br)cc2)c(C(=O)O)s1 | MIC | SKF | >100 µg/mL

Repeating the final 3 entries:

SMILES	measure	strain	result
COc1ccc(-c2cc3cc(C)cnc3[nH]2)cc1	MIC100	ATCC 10231	31.3 µg/mL
ONC1=Nc2ccc3ccccc3c2SCC1	MIC	CBS 562	>100 µg/mL
CSc1cc(-c2ccc(Br)cc2)c(C(=O)O)s1	MIC	SKF	>100 µg/mL